A mixed list of measured activities; the numbers were collected in NIAID ChemDB.

Common to all: target-level tests; organism: Hepatitis C virus; target: NS3 protease; endpoint: IC50

ICn: concentration for n% inhibition. Conditions beyond the fields shown may differ between rows.

CC(C)c1cccc(O)c(=O)c1 ; result: >200 µM
CC(C)C[C@H](NC(=O)[C@H](Cc1ccc([N+](=O)[O-])cc1)NC(=O)[C@@H](N)CC(=O)O)C(=O)N[C@@H](CCC(=O)O)C(=O)N[C@@H](CC1CCCCC1)C(=O)N[C@@H](CS)C(=O)O ; result: 0.24 µM
CC(=O)N[C@H](C(=O)N[C@H](C(=O)N1C[C@H](Oc2cccc(N3CCOCC3)c2)CC1C(=O)NC1(C(=O)O)CC1)C(C)C)C1CCCCC1 ; result: 32 µM
O=c1c(CN2CCOCC2)cc(CN2CCOCC2)cc(CN2CCOCC2)c1O ; result: 125 µM
CCCC[C@H](NC(=O)[C@H](CC(C)C)NC(=O)[C@@H](NC(=O)[C@](C)(Cc1ccccc1)NC(=O)[C@H](CCC(=O)O)NC(=O)[C@H](CC(=O)O)NC(=O)Cc1ccc2ccccc2c1)C(C)(C)C)C(=O)C(N)=O ; result: 0.09 µM
CC(C)c1ccc(CN2CCOCC2)c(O)c(=O)c1 ; result: >100 µM
CC[C@H](NC(=O)[C@H](CC1CCCCC1)NC(=O)C(NC(=O)[C@H](CC(C)C)NC(=O)c1cnccn1)[C@@H](C)CC)C(=O)C(=O)NCC(=O)NS(=O)(=O)c1ccccc1 ; result: 12 µM
CC(=O)N[C@H](C(=O)N[C@H](C(=O)N1C[C@H](Oc2ccccc2)CC1C(=O)NC1(C(=O)O)CC1)C(C)C)C1CCCCC1 ; result: 80 µM
CC1=CC(=O)N(Cc2ccccc2)C(=O)C1 ; result: 47 µM
CC(=O)N[C@H](C(=O)N[C@H](C(=O)N1C[C@H](Oc2ccccc2Br)CC1C(=O)NC1(C(=O)O)CC1)C(C)C)C1CCCCC1 ; result: 25 µM
C=C(NC(=O)[C@H](CC1CCCCC1)NC(=O)[C@H](CCC(=O)O)NC(=O)[C@@H](NC(=O)[C@H](CCC(=O)O)NC(=O)[C@@H](N)CC(=O)O)C(c1ccccc1)c1ccccc1)C(=O)O ; result: 7.1 µM
CC(=O)N[C@H](C(=O)N[C@H](C(=O)N1CC(Oc2ccnc3cc(Cl)ccc23)CC1C(=O)NC1(C(=O)O)CC1)C(C)C)C1CCCCC1 ; result: 0.8 µM
CC[C@H](C)[C@@H](NC(=O)[C@@H](N)CC(=O)O)C(=O)N[C@@H](CC(C)C)C(=O)N[C@@H](CCC(=O)O)C(=O)N[C@@H](CC1CCCCC1)C(=O)N[C@@H](CS)C(=O)O ; result: 0.33 µM
CC(=O)Nc1cccc(-c2cccc(O[C@@H]3CC(C(=O)NC4(C(=O)O)CC4)N(C(=O)[C@@H](NC(=O)[C@@H](NC(C)=O)C4CCCCC4)C(C)C)C3)c2)c1 ; result: 6 µM
O=C(O)c1cc(F)c(CCNC(=O)[C@H](CC(F)F)NC(=O)[C@H]2C[C@@H](C3CCCC3)CN2C(=O)C(O)Cc2ccccc2)c(F)c1 ; result: >100 µM

Repeating the final 2 entries:

{"smiles": "CC(=O)Nc1cccc(-c2cccc(O[C@@H]3CC(C(=O)NC4(C(=O)O)CC4)N(C(=O)[C@@H](NC(=O)[C@@H](NC(C)=O)C4CCCCC4)C(C)C)C3)c2)c1", "result": "6 µM"}
{"smiles": "O=C(O)c1cc(F)c(CCNC(=O)[C@H](CC(F)F)NC(=O)[C@H]2C[C@@H](C3CCCC3)CN2C(=O)C(O)Cc2ccccc2)c(F)c1", "result": ">100 µM"}